Source: publication PMC4959528, “SpoVG Is a Conserved RNA-Binding Protein That Regulates Listeria monocytogenes Lysozyme Resistance, Virulence, and Swarming Motility”
For at least one entry, the source does not settle the construct or the ends of the probe. At least one verdict rests on a figure or table, not on a statement of the authors. Protein sequences can lack the tags named with them.

Biological target: T1, SpoVG-6-His (Listeria monocytogenes 10403S) (UniProt Q8YAD5)
T1 sequence (looked up, limits assumed): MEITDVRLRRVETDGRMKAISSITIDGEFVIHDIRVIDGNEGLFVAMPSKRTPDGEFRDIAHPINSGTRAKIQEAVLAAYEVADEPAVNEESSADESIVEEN
Assay: EMSA
Settings: 300 mM NaCl, 5 mM DTT, plus 5 ug yeast tRNA, 1 ug BSA, 100 ng poly(dI-dC), 25-30 ul, recombinant protein, protein details: C-terminal 6xHis, label: 32P, single-stranded DNA

[1] = affinity similar to cap41 and pgdA, 2 mM MgCl2, 20% glycerol
[2] = affinity similar to cap41, 2 mM MgCl2, 20% glycerol

Row | Sequence | binding result [1] | binding result [2] | other results
1 | AATTCGATATATGATTTTGAAAATGAATTTCATAACTTTTAAATTGCGT [scrambled probe 1] | binds |  | 
2 | ACAAAAACTAGAAACTTGCCTTTTTTCATGTATAATTGTTTTATAAGAA [pgdA promoter 1] |  | binds | 
3 | ATTTTTTAGCGCTATAAAAAAGCTATTTTTTAAAAAAGTACTTTTTTGA [scrambled probe 3] | binds |  | 
4 | CGGTAAAAGCTCCCACTTTATCCGTGTCTTTTTTGTGACATTTGTTAAG [pgdA promoter 3] |  | binds | 
5 | GAGTATAATTATTTTTAATTTACATATAAATAAAAAGGCGAAAATAATGCGGTTTAAAAGTAATTAAT [cap41 ssDNA] |  |  | Kd (apparent Kd, 2 mM MgCl2, 20% glycerol): 1200 nM
6 | GCCGAGCGGGTACGCCGTGCGGTATGGGCCCACGCTCCGTGGCGTGCCG [scrambled probe 2] | binds |  | 
7 | TTTGTTAAGAAATCGTTGGTCCTTTTTTCCTATTTTAGTACAAAAACTA [pgdA promoter 2] |  | binds | 
